This is a selection; strong and weak results do not stand in their true shares.

The chains behind the UniProt entries cited, without tags or fusion partners. Residues count along the entry.
UniProt E9BF75, entry or part of it: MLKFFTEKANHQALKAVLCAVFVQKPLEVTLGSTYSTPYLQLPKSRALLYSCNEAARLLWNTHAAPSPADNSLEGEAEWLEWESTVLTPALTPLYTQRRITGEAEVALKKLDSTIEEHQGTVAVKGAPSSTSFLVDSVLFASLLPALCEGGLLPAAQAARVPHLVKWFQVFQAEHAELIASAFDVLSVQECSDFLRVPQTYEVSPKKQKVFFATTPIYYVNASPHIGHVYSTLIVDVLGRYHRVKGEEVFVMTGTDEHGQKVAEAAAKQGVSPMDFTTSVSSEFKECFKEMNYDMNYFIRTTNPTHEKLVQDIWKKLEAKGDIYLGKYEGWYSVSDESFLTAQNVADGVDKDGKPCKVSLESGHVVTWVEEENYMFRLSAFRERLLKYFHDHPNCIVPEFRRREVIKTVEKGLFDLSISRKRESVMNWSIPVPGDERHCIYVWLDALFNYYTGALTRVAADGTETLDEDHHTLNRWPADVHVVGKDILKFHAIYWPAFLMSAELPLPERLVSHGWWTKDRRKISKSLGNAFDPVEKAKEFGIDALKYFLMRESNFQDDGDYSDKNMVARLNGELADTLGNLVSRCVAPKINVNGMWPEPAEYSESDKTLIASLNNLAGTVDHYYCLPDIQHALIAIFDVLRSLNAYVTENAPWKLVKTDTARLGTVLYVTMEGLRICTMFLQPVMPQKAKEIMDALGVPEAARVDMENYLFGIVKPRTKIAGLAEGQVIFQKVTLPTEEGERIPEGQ
UniProt P9WNZ1, whole entry: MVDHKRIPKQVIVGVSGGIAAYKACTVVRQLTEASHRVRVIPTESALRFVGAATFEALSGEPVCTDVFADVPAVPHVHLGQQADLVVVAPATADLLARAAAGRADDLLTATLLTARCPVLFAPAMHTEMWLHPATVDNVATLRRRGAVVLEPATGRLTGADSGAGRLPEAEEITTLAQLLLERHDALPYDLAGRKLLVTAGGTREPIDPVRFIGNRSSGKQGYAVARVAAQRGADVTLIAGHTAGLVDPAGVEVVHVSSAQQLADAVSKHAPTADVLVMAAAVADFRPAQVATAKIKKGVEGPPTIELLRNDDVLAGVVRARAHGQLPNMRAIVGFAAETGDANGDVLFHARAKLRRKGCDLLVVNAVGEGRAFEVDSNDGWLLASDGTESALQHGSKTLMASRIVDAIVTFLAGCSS
UniProt Q8IDJ8, 1-583: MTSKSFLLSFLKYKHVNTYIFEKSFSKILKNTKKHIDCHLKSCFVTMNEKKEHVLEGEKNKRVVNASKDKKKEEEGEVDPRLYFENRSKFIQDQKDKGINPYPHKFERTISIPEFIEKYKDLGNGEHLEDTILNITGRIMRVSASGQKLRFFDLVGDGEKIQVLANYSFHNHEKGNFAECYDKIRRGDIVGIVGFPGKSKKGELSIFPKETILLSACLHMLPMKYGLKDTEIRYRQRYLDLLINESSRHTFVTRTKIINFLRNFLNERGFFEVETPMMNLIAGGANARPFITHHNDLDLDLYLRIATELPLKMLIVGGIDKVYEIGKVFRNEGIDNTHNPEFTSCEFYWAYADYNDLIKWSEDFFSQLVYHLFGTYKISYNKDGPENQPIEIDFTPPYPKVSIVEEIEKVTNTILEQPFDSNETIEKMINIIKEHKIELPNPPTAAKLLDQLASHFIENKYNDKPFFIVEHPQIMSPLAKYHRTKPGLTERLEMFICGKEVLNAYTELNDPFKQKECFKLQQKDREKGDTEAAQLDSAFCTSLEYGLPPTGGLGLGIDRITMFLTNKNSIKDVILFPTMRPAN
UniProt Q4DA54, 1-478: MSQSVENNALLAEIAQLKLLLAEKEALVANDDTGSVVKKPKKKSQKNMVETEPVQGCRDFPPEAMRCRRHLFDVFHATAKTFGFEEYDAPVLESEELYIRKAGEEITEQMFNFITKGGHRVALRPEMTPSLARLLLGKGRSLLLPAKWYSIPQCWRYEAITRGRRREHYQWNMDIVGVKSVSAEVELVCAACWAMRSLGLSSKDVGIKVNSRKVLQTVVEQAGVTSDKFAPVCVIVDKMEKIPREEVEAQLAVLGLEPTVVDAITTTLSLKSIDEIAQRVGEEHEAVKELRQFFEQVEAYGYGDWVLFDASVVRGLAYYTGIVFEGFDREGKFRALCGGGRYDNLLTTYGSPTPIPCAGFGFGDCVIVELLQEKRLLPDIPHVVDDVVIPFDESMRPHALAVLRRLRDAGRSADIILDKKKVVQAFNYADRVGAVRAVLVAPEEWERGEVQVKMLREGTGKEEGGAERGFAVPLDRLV
UniProt P9WFT3, whole entry: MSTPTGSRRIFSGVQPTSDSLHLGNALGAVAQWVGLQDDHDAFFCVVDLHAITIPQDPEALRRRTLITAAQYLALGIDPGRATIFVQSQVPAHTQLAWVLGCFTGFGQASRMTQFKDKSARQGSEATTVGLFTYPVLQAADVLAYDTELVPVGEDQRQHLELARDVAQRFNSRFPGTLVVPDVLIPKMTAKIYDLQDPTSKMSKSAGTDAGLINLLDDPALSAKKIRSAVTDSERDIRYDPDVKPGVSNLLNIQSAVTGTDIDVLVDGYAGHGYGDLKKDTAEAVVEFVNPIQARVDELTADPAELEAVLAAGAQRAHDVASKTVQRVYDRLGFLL
UniProt A4I591, 1-473: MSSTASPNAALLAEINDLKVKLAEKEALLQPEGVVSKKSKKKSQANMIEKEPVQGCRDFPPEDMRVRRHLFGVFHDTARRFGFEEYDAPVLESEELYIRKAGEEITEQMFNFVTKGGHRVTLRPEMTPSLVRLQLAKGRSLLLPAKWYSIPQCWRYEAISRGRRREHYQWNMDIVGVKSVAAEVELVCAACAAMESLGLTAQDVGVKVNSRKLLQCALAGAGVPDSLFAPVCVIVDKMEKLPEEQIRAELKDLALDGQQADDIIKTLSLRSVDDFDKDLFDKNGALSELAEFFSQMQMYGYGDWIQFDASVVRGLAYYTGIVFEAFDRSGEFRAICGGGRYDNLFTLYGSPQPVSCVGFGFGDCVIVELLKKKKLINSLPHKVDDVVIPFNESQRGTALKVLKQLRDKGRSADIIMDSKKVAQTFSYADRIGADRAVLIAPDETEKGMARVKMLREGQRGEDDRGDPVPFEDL
UniProt I6X8D2, whole entry: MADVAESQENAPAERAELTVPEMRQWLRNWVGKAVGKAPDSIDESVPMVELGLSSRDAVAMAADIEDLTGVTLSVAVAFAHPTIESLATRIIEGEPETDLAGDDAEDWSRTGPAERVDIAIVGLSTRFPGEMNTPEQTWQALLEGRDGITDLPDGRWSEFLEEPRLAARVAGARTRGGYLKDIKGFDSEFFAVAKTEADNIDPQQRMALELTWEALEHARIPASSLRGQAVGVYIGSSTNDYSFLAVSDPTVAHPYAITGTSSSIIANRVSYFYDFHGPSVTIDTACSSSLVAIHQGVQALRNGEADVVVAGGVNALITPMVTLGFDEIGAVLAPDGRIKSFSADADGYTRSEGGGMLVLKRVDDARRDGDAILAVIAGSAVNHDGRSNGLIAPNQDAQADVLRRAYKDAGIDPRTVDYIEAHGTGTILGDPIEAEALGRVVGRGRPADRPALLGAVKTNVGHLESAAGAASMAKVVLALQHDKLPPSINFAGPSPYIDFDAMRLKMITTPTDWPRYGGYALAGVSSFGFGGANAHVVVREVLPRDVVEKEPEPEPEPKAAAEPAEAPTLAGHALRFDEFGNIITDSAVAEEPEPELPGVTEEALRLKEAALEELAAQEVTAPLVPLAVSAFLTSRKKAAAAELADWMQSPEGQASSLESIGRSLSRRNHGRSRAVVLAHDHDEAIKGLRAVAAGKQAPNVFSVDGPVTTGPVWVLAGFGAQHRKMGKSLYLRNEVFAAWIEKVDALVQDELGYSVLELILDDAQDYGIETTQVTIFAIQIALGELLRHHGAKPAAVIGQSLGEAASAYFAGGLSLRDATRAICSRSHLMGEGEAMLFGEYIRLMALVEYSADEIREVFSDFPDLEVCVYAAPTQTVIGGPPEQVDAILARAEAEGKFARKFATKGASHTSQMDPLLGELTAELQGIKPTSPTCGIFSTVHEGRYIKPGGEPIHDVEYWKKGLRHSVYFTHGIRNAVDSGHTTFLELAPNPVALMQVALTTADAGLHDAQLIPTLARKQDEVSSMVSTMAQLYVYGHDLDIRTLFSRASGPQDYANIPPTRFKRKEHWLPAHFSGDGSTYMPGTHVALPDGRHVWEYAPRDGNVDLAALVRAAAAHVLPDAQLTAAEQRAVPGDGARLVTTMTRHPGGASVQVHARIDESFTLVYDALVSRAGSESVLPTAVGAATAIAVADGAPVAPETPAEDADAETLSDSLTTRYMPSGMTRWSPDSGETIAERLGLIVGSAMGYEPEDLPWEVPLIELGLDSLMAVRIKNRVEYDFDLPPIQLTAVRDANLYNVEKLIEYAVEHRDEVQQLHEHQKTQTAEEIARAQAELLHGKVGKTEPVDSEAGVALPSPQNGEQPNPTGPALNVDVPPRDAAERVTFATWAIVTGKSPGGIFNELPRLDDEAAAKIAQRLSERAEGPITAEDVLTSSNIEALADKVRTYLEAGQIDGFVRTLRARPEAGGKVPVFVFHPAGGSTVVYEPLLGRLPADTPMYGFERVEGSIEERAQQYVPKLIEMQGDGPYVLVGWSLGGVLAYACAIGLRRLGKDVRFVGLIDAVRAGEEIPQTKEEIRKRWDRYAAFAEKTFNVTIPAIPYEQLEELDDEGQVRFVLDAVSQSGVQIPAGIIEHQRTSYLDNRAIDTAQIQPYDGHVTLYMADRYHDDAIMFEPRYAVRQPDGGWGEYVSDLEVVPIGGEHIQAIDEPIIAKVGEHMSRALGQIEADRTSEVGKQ
UniProt P9WPC5, whole entry: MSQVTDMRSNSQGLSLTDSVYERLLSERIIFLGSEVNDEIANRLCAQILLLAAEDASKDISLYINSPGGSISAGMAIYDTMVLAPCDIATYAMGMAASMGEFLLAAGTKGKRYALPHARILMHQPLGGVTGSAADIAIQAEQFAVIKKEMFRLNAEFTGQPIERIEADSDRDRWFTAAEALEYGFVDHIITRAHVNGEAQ
UniProt P9WPC3, whole entry partner: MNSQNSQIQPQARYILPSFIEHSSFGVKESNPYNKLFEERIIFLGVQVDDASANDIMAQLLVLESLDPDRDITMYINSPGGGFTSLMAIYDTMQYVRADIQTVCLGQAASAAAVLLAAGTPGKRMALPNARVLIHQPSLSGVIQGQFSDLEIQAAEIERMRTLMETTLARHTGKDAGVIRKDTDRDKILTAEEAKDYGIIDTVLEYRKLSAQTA

What all share (assay type): functional
Test [1] addresses Methionyl-tRNA synthetase, putative (Leishmania donovani (strain BPK282A1)) (UniProt E9BF75). Briefly: Leishmania donovani Methionine tRNA synthetase (LdMetRS):v6. Primary screen assay. More on the design: conc 80 nM, time 150 minutes.
Test [2] deals with Coenzyme A biosynthesis bifunctional protein CoaBC (Mycobacterium tuberculosis (strain ATCC 25618 / H37Rv)) (UniProt P9WNZ1). Briefly: Biomol Green assay for MtCoaBC inhibitor, OD650 read. To be noted: 30 µM. Further details: scale not given: in the data most compounds retested in dose-response had high values.
The target of test [3] is Lysine--tRNA ligase (Plasmodium falciparum (isolate 3D7)) (UniProt Q8IDJ8). Briefly: Pf-KRS-1 (Lysyl-RNA Synthetase-1, KRS-1, cytosolic KRS) from Plasmodium falciparum. Inhibitor assay, 384 well plate, luminescence read. To be noted: 30 µM. More on the design: scale not given: direction of the effect not stated beside the values. Further: in the data most compounds retested in dose-response had high values.
Test [4] deals with Histidine--tRNA ligase (Trypanosoma cruzi (strain CL Brener)) (UniProt Q4DA54). Briefly: Trypanosoma cruzi histidyl tRNA synthetase (Tc-HisRS). More on the design: scale not given: direction of the effect not stated beside the values. The conditions noted are these: 30 µM.
The target of test [5] is Tryptophan--tRNA ligase (Mycobacterium tuberculosis (strain ATCC 25618 / H37Rv)) (UniProt P9WFT3). Briefly: Biochemical assay for Mt-TrpRS. More on the design: scale not given: direction of the effect not stated beside the values. The conditions noted are these: 10 µM.
For test [6], the target named is Histidine--tRNA ligase (Leishmania infantum) (UniProt A4I591). The experiment in a line: Leishmania infantum Histidine tRNA synthetase (LdHisRS). More on the design: scale not given: in the data most compounds retested in dose-response had high values. To be noted: 30 µM.
The target in test [7] is Polyketide synthase Pks13 (Mycobacterium tuberculosis (strain ATCC 25618 / H37Rv)) (UniProt I6X8D2). The experiment in a line: Mycobacterium tuberculosis Polyketide synthase 13 Thioesterase (PKS13). Further details: scale not given: in the data most compounds retested in dose-response had high values. To be noted: 30 µM.
Test [8] deals with ClpP1P2 (Mycobacterium tuberculosis (strain ATCC 25618 / H37Rv)) (UniProt P9WPC5+P9WPC3). The experiment in a line: in vitro assay to detect presence of AMC directly proportional to the activity of ClpP1P2. GHDDI collaboration. Further details: scale not given: direction of the effect not stated beside the values. To be noted: 50 µM.

Broadly, the inhibition is the relative decrease from the control value, in per cent. With `COc1ccccc1NC1CCN(Cc2ccc(Br)s2)CC1`, in test [1], the inhibition came to 10.3%. Further, the Percent Effect was 4.55% in test [2]; 3.46% in test [3]; 2.61% in test [4]; -0.0713% in test [5]; 10% in test [6]; 17.7% in test [7]. The Percent Effect in test [8] amounted to 4.15%.

As for `Cc1cccc(NC2CCN(Cc3nnc(C4CC4)o3)CC2)c1`, the inhibition in test [1] came out at 9.77%. Also, the Percent Effect was 0.407% in test [2]; 7.82% in test [3]; 3.7% in test [4]; -1.69% in test [5]; 23.5% in test [6]; -15.4% in test [7]. In addition, the Percent Effect in test [8] came to 13.6%.

With `CC1(C)CN(C2(CNC(=O)c3c[nH]nn3)CCCCC2)CCO1`, the inhibition in test [1] was 16.6%. For the same compound, the Percent Effect is -8.26% in test [2]; 6.75% in test [3]; 6.19% in test [4]; -1.85% in test [5]; 16.5% in test [6]; -52.6% in test [7]. Moreover, in test [8], the Percent Effect was 7.05%.

Regarding `NC1(CNC(=O)c2cc3ccccc3[nH]2)CCCCC1`, the inhibition in test [1] was determined as 8.61%. Besides, the Percent Effect was 3.15% in test [2]; 3.75% in test [3]; -7.96% in test [4]; 1.98% in test [6]; -8.35% in test [7]; -1.51% in test [8].

Turning to `Cc1nnc(C(C)N2CCC(Nc3ccccc3C)CC2)o1` (stereo not drawn), the inhibition in test [1] amounted to 9.29%. For the same compound, the Percent Effect in test [2] was 5.14%; in test [3], -4.34%; in test [4] it was 4.48%; in test [5] it was 0.306%; in test [6], 1.21%; in test [7], -10.8%. For the same compound, the Percent Effect in test [8] was -4.17%.

As for `Cc1cccc(NC2CCN(Cc3nc(C)c(C)o3)CC2)c1`, the inhibition in test [1] turned out to be 8.27%. Further, the Percent Effect in test [2] is -5.7%; in test [3] it was -0.141%; in test [4] it was 3.7%; in test [5] it was 9.81%; in test [6] it was 2.94%; in test [7], -10.9%. Also, in test [8], the Percent Effect turned out to be 2.65%.

Compound `CCCN1CCC(Nc2ccc(OC)c(OC)c2)CC1` came in with an inhibition in test [1] of 9.36%. In addition, the Percent Effect in test [2] is -18.2%; in test [3] it was 9.14%; in test [4], 28.3%; in test [5], 0.973%; in test [6], 44%; in test [7], 0.0408%. The Percent Effect in test [8] stood at 2.65%.

For the compound `COc1ccc2[nH]c(C(=O)NCC3(N)CCCCC3)cc2c1`, the inhibition in test [1] was determined as 7.5%. The Percent Effect is 0.728% in test [2]; 5.32% in test [3]; 2.27% in test [4]; 7.92% in test [6]; 16.4% in test [7]; -3.9% in test [8].

With `CCN1CCC(Nc2ccc(OC)c(OC)c2)CC1`, the inhibition in test [1] was found to be 5.08%. The Percent Effect in test [2] is -22.3%; in test [3], 11.1%; in test [4], 1.73%; in test [5], 0.0884%; in test [6] it was 76%; in test [7], -3.92%. For the same compound, the Percent Effect in test [8] was 7.72%.

Compound `COc1ccccc1NC1CCN(Cc2ccc(Br)cc2)CC1` showed an inhibition in test [1] of 6.5%. The Percent Effect in test [2] was -3.78%; in test [3] it was 4.74%; in test [4] it was 8.99%; in test [5], -2.95%; in test [6], 9.33%; in test [7] it was -13.5%. Further, the Percent Effect in test [8] is -5.9%.

In test [1], `COc1ccc(NC2CCN(C)CC2)cc1OC` showed an inhibition of 9.89%. The Percent Effect in test [2] is -10.3%; in test [3] it was 3.37%; in test [4], 5.2%; in test [5], -8.93%; in test [6], 33.3%; in test [7] it was -21.2%. In addition, the Percent Effect in test [8] was determined as 2.57%.

`COc1ccc(NC2CCN(CCc3ccccc3)CC2)cc1OC`: the inhibition in test [1] was 2.94%. Also, the Percent Effect was -20.7% in test [2]; 2.63% in test [3]; 15.6% in test [4]; -5.75% in test [5]; 62.7% in test [6]; -1.61% in test [7]. In addition, the Percent Effect in test [8] turned out to be 3.27%.

The compound `COc1cccc(NC2CCNCC2)c1` returned an inhibition in test [1] of 17.2%. For the same compound, the Percent Effect in test [2] is -2.83%; in test [3] it was 7.18%; in test [4] it was 11.3%; in test [5] it was -4%; in test [6], 20.9%; in test [7] it was -11.1%. For the same compound, the Percent Effect in test [8] turned out to be 3.27%.

Regarding `Cc1cccc(NC2CCN(Cc3nnc(C(C)C)o3)CC2)c1`, in test [1], the inhibition is 20.3%. The Percent Effect was 1.63% in test [2]; 8.5% in test [3]; 6.88% in test [4]; -2.48% in test [5]; 23.5% in test [6]; -23.3% in test [7]. Moreover, the Percent Effect in test [8] came out at 1.79%.

`COc1ccccc1NC1CCN(Cc2scnc2C)CC1` came in with an inhibition in test [1] of 3.79%. Moreover, the Percent Effect in test [2] is -1.28%; in test [3], 0.887%; in test [4], 0%; in test [5] it was -2.5%; in test [6], 5%; in test [7], -0.821%. Also, in test [8], the Percent Effect was -4.39%.

The values are drawn from ChEMBL document CHEMBL3988442, “University of Dundee, Small-Polar-MMV Screening Library” (2021).
